A mixed list of measured activities; the numbers were collected in NIAID ChemDB.

All rows: whole-cell or culture tests; organism: HIV-1

ECn: concentration that inhibits the pathogen or its effect by n%. Lines come from different laboratories, so protocols vary. Blank or dashed fields: not listed here.

structure | setting | strain | read-out | method | mutations | cells | value
CONc1nc(=O)n([C@H]2C[C@H](N=[N+]=[N-])[C@@H](CO)O2)cc1C |  | LAV-Bru | EC50 | RT activity |  | CEM-C113 + CEM/C113 | 169 µM
CC(C)CN(C[C@@H](O)[C@H](Cc1ccccc1)NC(=O)[C@H](CC(N)=O)NC(=O)c1ccc2ccccc2n1)C(=O)NC(C)(C)C |  |  | EC90 | RT activity |  | CEM | 0.08 µg/mL
Cc1cn([C@H]2C[C@H](N=[N+]=[N-])[C@@H](CO)O2)c(=O)[nH]c1=O |  | IIIB | EC50 | MTT |  | MT-4 | 0.0071 µM
Cc1cn([C@H]2C[C@H](N=[N+]=[N-])[C@@H](CO)O2)c(=O)[nH]c1=O | clinical isolate | ROJO | EC50 | cytopathic effect / XTT |  | PBMC | 0.01 µM
CC(C)(C)[Si](C)(C)OC[C@H]1O[C@@H](n2ccc(=O)n(CC(=O)O)c2=O)[C@H](O[Si](C)(C)C(C)(C)C)[C@@H]1O |  | IIIB | EC50 | syncytia |  | CEM | >10 µM
CC(C)CN(C[C@@H](O)[C@H](Cc1ccccc1)NC(=O)[C@H](CC(N)=O)NC(=O)c1ccc2ccccc2n1)C(=O)NC(C)(C)C |  | IIIB | EC50 | cytopathic effect / MTT |  | CEM | 0.021 µM
CC(=O)c1cc(C#N)cc(C(=O)c2cc(Cl)ccc2OCC(=O)Nc2ccc(S(N)(=O)=O)cc2C)c1 |  |  | EC50 |  | Y181C | HeLa | 0.0019 µM
Nc1ccn([C@@H]2CS[C@H](CO)O2)c(=O)n1 |  | 7324-1 NRTI resistant recombinant | EC50 | RT activity | RT-M41L D67N T69N K70R T215F K219E | PBMC | 0.634 µM
Cc1cn([C@H]2C=C[C@@H](CO)O2)c(=O)[nH]c1=O |  | HXB2 WT | EC50 | β-galactosidase |  | MAGI (CCR5) + MAGI | 7.6 µM
CC(C)(C)OC(=O)N[C@@H](Cc1ccccc1)[C@@H](O)C[C@@H](Cc1ccccc1)C(=O)N[C@H]1c2ccccc2C[C@H]1O |  | IIIB | EC50 | p24 |  | MT-4 | <0.4 µM
Cc1cc(C)c(-n2nnnc2SCC(=O)Nc2ccc(-n3cccn3)cc2)c(C)c1 |  |  | EC95 | p24 |  | MT-4 | <10 µM
CCOC(=O)c1cc(C#N)cc(C(=O)c2cc(Cl)ccc2OCC(=O)Nc2ccc(S(N)(=O)=O)cc2C)c1 |  |  | EC50 |  | Y181C | HeLa | 0.0042 µM
Cc1cc(C)c(-n2nnnc2SCC(=O)Nc2sccc2C#N)c(C)c1 |  |  | EC95 | p24 |  | MT-4 | <10 µM
Cc1cc(S(N)(=O)=O)ccc1NC(=O)COc1ccc(Cl)cc1C(=O)c1cc(C#N)cc(C(N)=O)c1 |  |  | EC50 |  | Y181C | HeLa | >2 µM
O=C(CSc1nnnn1-c1cccc2ccccc12)Nc1ccccc1F |  |  | EC95 | p24 |  | MT-4 | <10 µM
CCc1c(C(C)CC2CCCCC2)nc(SCC(=O)c2ccccc2)[nH]c1=O |  | IIIB | EC50 | MTT |  | MT-4 | 0.09 µM
CC(C)CN(C[C@@H](O)[C@H](Cc1ccccc1)NC(=O)O[C@H]1CCOC1)S(=O)(=O)c1ccc(N)cc1 |  |  | EC50 | RT activity |  | CEM | <0.04 µg/mL
O=C(O)c1cc(O)cc(O)c1N=Nc1ccc(/C=C/c2ccc(N=Nc3c(O)cc(O)cc3C(=O)O)cc2S(=O)(=O)O)c(S(=O)(=O)O)c1 |  | IIIB | EC50 | RT activity |  | PBL | 2.6 µg/mL
CCc1c(C(C)C2CCCCC2)nc(SCC(=O)c2ccc(OC)cc2)[nH]c1=O |  | IIIB | EC50 | MTT |  | MT-4 | 0.03 µM
CC(C)(C)NC(=O)N(Cc1ccncc1)C[C@@H](O)[C@H](Cc1ccccc1)NC(=O)[C@H](CC(N)=O)NC(=O)c1ccc2ccccc2n1 |  | IIIB | EC50 | cytopathic effect / MTT |  | CEM | 0.03 µM
COC(=O)c1cccc(NC(=O)CSc2nnnn2-c2c(C)cc(C)cc2C)c1C |  |  | EC95 | p24 |  | MT-4 | <10 µM
C#C[C@@]1(CO)C=C[C@H](n2cc(C)c(=O)[nH]c2=O)O1 |  | HXB2 WT | EC50 | β-galactosidase |  | MAGI (CCR5) + MAGI | 1.5 µM
COC(=O)c1cc(C#N)cc(C(=O)c2cc(Cl)ccc2OCC(=O)Nc2ccc(S(N)(=O)=O)cc2C)c1 |  |  | EC50 |  | Y181C | HeLa | 0.0029 µM
CCc1c(C(C)C2CCCCC2)nc(SCC(=O)c2ccccc2)[nH]c1=O |  | IIIB | EC50 | MTT |  | MT-4 | 0.018 µM
CC(C)(C)[Si](C)(C)OC[C@H]1O[C@@H](n2ccc(=O)n(CC(=O)O)c2=O)[C@H](O)[C@@H]1O[Si](C)(C)C(C)(C)C |  | IIIB | EC50 | syncytia |  | CEM | ≥10 µM
Cc1cccc(Cl)c1-n1nnnc1SCC(=O)Nc1ccccc1Cl |  |  | EC50 | p24 |  | MT-4 | <10 µM
CC(C)Nc1cccnc1N1CCN(C(=O)c2cc3cc(NS(C)(=O)=O)ccc3[nH]2)CC1 |  | IIIB | EC50 | MTT |  | MT-4 | 0.32 µM
CONc1ccn([C@H]2C[C@H](N=[N+]=[N-])[C@@H](CO)O2)c(=O)n1 |  | LAV-Bru | EC50 | RT activity |  | CEM-C113 + CEM/C113 | 177 µM
Cc1cn([C@H]2C[C@H](N=[N+]=[N-])[C@@H](CO)O2)c(=O)[nH]c1=O |  |  | EC50 | MTT | Y188L mutant | MT-4 | 0.008 µM
CCc1c(CCC2CCCCC2)nc(SCC(=O)c2ccccc2)[nH]c1=O |  | IIIB | EC50 | MTT |  | MT-4 | 0.1 µM
Nc1ncnc2c1ncn2CCOCP(=O)(O)O |  |  | EC50 |  |  | MT-4 | 6.5 µM
CNC(=O)c1cc(C#N)cc(C(=O)c2cc(Cl)ccc2OCC(=O)Nc2ccc(S(N)(=O)=O)cc2C)c1 |  |  | EC50 |  | V106A | HeLa | >2 µM
O=C(CSc1nnnn1-c1cccc2ccccc12)Nc1ccccc1 |  |  | EC95 | p24 |  | MT-4 | <10 µM
CCc1c(CC2CCCCC2)nc(SCC(=O)c2ccccc2)[nH]c1=O |  | IIIB | EC50 | MTT |  | MT-4 | 0.02 µM
Cc1cn([C@H]2C[C@H](N=[N+]=[N-])[C@@H](CO[Si](C)(C)C(C)(C)C)O2)c(=O)n(CC(=O)O)c1=O |  | IIIB | EC50 | syncytia |  | CEM | >50 µM
CCCCC#CCSc1ccccc1OC(C)=O |  |  | EC50 |  |  | PBL | 10 µM
Cc1cn([C@@H]2O[C@H](CO[Si](C)(C)C(C)(C)C)[C@@H](O)[C@H]2O[Si](C)(C)C(C)(C)C)c(=O)n(CCO)c1=O |  | IIIB | EC50 | cytopathic effect / trypan blue |  | MT-4 | 31 µM
Cc1cc(C)c(-n2nnnc2SCC(=O)Nc2ccc(S(=O)(=O)Nc3nc(C)c(C)o3)cc2)c(C)c1 |  |  | EC95 | p24 |  | MT-4 | <10 µM
CC(CC1CCCCC1)c1cc(=O)[nH]c(SCC(=O)c2ccc(F)cc2)n1 |  | IIIB | EC50 | MTT |  | MT-4 | 10.9 µM
Cc1cc(S(N)(=O)=O)ccc1NC(=O)COc1ccc(Cl)cc1C(=O)c1cc(C#N)cc(OC(F)(F)F)c1 |  |  | EC50 |  | WTRVA | HeLa | 0.00009 µM
Cc1cn([C@@H]2O[C@H](CO[Si](C)(C)C(C)(C)C)[C@@H](O)[C@H]2O[Si](C)(C)C(C)(C)C)c(=O)n(CC(=O)ON)c1=O |  | IIIB | EC50 | cytopathic effect / trypan blue |  | MT-4 | >2 µM
CN(C)c1ccc(-n2nnnc2SCC(=O)Nc2ccccc2Cl)c2ccccc12 |  |  | EC50 | p24 |  | MT-4 | <10 µM
COC(=O)[C@H](C)NP(=O)(OC[C@@H]1C=C[C@H](n2cc(C)c(=O)[nH]c2=O)O1)Oc1ccc(Br)cc1 |  | G890-1 NRTI resistant | EC50 | p24 | RT-K20R M41L D67N T69N K70R L210W T215Y | PBMC | 0.006 µM

For reference, 5 entries again:

structure,setting,strain,read-out,method,mutations,cells,value
O=C(O)c1cc(O)cc(O)c1N=Nc1ccc(/C=C/c2ccc(N=Nc3c(O)cc(O)cc3C(=O)O)cc2S(=O)(=O)O)c(S(=O)(=O)O)c1,,IIIB,EC50,RT activity,,PBL,2.6 µg/mL
CCc1c(CC2CCCCC2)nc(SCC(=O)c2ccccc2)[nH]c1=O,,IIIB,EC50,MTT,,MT-4,0.02 µM
CC(C)(C)NC(=O)N(Cc1ccncc1)C[C@@H](O)[C@H](Cc1ccccc1)NC(=O)[C@H](CC(N)=O)NC(=O)c1ccc2ccccc2n1,,IIIB,EC50,cytopathic effect / MTT,,CEM,0.03 µM
CC(C)(C)OC(=O)N[C@@H](Cc1ccccc1)[C@@H](O)C[C@@H](Cc1ccccc1)C(=O)N[C@H]1c2ccccc2C[C@H]1O,,IIIB,EC50,p24,,MT-4,<0.4 µM
CN(C)c1ccc(-n2nnnc2SCC(=O)Nc2ccccc2Cl)c2ccccc12,,,EC50,p24,,MT-4,<10 µM